# According to the OPERA property sets (Mansouri et al. 2018):
structure (smiles),measurement,value
COP(=S)(Cl)OC,log10 OH rate constant (cm³/molecule/s),-10.2
